In patent US6534530B1, “Antipicornaviral compounds and compositions, their pharmaceutical uses, and materials for their synthesis” (Agouron Pharmaceuticals, Inc., priority 1999, dated 2003):

System: HRV-14
Test: Antirhinoviral H1-HeLa cell culture assay (XTT), HRV-14
Type: cell-based, human rhinovirus
Conditions: CC50/EC50

Row | Compound | TI
1 | CNC(=O)C(=O)[C@H](CNC(C)=O)NC(=O)[C@H](Cc1ccccc1)NC(=O)[C@H](CC(C)C)NC(=O)OCc1ccccc1 [Compound 10, Cbz-L-Leu-L-Phe-L-(N-Ac-amino-Ala)-C(O)NHCH3] | >1
2 | CC(=O)NC[C@@H](NC(=O)[C@H](Cc1ccccc1)NC(=O)[C@H](CC(C)C)NC(=O)OCc1ccccc1)C(=O)C(=O)N1CCCCC1 [Compound 12, Cbz-L-Leu-L-Phe-D-(N-Ac-amino-Ala)-C(O)-Piperidine] | 2
3 | CC(C)C[C@H](NC(=O)OCc1ccccc1)C(=O)N[C@@H](Cc1ccccc1)C(=O)N[C@@H](CCC(N)=O)C(=O)c1nc2ccccc2s1 [Compound 20, Cbz-L-Leu-L-Phe-L-Gln-2-Benzthiazole] | >6
4 | CC(C)C[C@H](NC(=O)OCc1ccccc1)C(=O)N[C@@H](Cc1ccccc1)C(=O)N[C@@H](C[C@@H]1CCNC1=O)C(=O)c1nc2ccccc2s1 [Compound 21, Cbz-L-Leu-L-Phe-L-[(S)-Pyrrol-Ala]-2-Benzthiazole] | >100
5 | CC(C)C[C@H](NC(=O)OCc1ccccc1)C(=O)N[C@@H](Cc1ccccc1)C(=O)N[C@@H](C[C@@H]1CCNC1=O)C(=O)c1nccs1 [Compound 22, Cbz-L-Leu-L-Phe-L-[(S)-Pyrrol-Ala]-2-Thiazole] | 30
6 | CC(C)C[C@H](NC(=O)OCc1ccccc1)C(=O)N[C@@H](Cc1ccccc1)C(=O)N[C@@H](C[C@@H]1CCNC1=O)C(=O)c1ccccn1 [Compound 23, Cbz-L-Leu-L-Phe-L-[(S)-Pyrrol-Ala]-2-Pyridine] | 50
7 | Cc1cc(C(=O)N[C@H](C(=O)N[C@@H](Cc2ccc(F)cc2)C(=O)N[C@@H](C[C@@H]2CCNC2=O)C(=O)c2nc3ccccc3s2)C(C)C)no1 [Compound 28, (5-Methylisoxazole-3-carboxyl)-L-Val-L-Phe(4-F)-L-[(S)-Pyrrol-Ala]-2-Benzthiazole] | 749
8 | CCOC(=O)c1ccc(OCCC2CCN(c3ccc(C)nn3)CC2)cc1 [Pirodavir, reference compound] | >300
9 | Cc1cc(CCCOc2c(C)cc(-c3noc(C(F)(F)F)n3)cc2C)on1 [Pleconaril, reference compound] | >1000
10 | Cc1cc(CCCCCCCOc2ccc(C3=NCCO3)cc2)on1 [WIN51711, reference compound] | >77
11 | Cc1cc(CCCCCCCOc2ccc(C3=N[C@@H](C)CO3)cc2)on1 [WIN52084, reference compound] | >143
12 | Cc1cc(CCCCCOc2c(Cl)cc(C3=NCCO3)cc2Cl)on1 [WIN54954, reference compound] | >30
